Reference: patent US20120207760A1, “Compositions and Methods for the Therapy and Diagnosis of Influenza” (THERACLONE SCIENCES, published 2012)

What was measured:
[1] = target: T1, hemagglutinin (HA) of influenza A/Wisconsin/67/05 H3N2 (Influenza A virus A/Wisconsin/67/2005 …); assay: ELISA, inactivated whole virions coated; transfection supernatant set 1
[2] = target: T1, hemagglutinin (HA) of influenza …; assay: ELISA, inactivated whole virions coated; transfection supernatant set 2
[3] = target: T1, hemagglutinin (HA) of influenza …; assay: ELISA, inactivated whole virions coated; transfection supernatant set 3
[4] = target: T1, hemagglutinin (HA) of influenza …; assay: ELISA, inactivated whole virions coated; transfection supernatant set 4
[5] = target: T1, hemagglutinin (HA) of influenza …; assay: ELISA, inactivated whole virions coated; transfection supernatant set 5

B1: TCN-523 (5248_A17) (antibody, V domains shown)
VH: QVQLVQSGAEVKKPGSSVKVSCKASGGSFSNYAFSWVRQAPGQGLEWMGGTIPLLGTTNYAQKFQGRVTISADQFTSTAYMELGSLRSEDTAVYYCTRRKMTTAFDSWGQGTLVTVSS
VL: QPVLTQPPSASASLGASVTLTCTLSSAYSNYKVDWYQQRPGKGPRFVMRVGTGGIVGSKGDGIPDRFSVLGSGLNRYLTIKNIQEEDESDYHCGADHGSGSNFVSPYVFGGGTKLTVL
OD450 [1]: 0.09 OD450
OD450 [2]: 0.09 OD450
OD450 [3]: 0.15 OD450
OD450 [4]: 0.09 OD450
OD450 [5]: 0.14 OD450
